Compound potency records, mixed from different reports. Data source: NIAID ChemDB in PubChem.

Shared fields: target-level tests

Lines come from different laboratories, so protocols vary.

O=C(O)C(Cc1ccccc1)N(Cc1ccc(-c2ccncc2)o1)C(=O)c1ccc(Cl)cc1Cl ; species: Hepatitis C virus ; measure: IC50 ; protein: RNA-dependent RNA polymerase ; result: <5 µM
O=C(O)c1cnn2c(C3CCCCC3)c(-c3ccccc3)cnc12 ; species: Hepatitis C virus ; measure: IC50 ; protein: RNA-dependent RNA polymerase ; result: 1–10 µM
COCC(C)N(C(=O)C1CCC(C)CC1)c1cc(-c2ccccc2)sc1C(=O)O ; species: Hepatitis C virus ; measure: IC50 ; protein: NS3 ATPase ; result: <5 µM
CC(C)C[C@@]1(C(=O)O)C[C@H](c2ncn[nH]2)[C@H](c2nccs2)N1C(=O)c1ccc(C(C)(C)C)cc1 ; species: Hepatitis C virus ; measure: IC50 ; protein: RNA-dependent RNA polymerase ; result: <50 µM
COc1nc(Nc2ccc3[nH]ncc3c2)nc(NC2CC2)n1 ; species: Hepatitis C virus ; tested at: 0.1 µg/mL ; measure: inhibition ; protein: Nonstructural protein 5B ; result: 12%
Cc1cccc(-c2cc(N(C(=O)C3CCC(C)CC3)C(C)C)c(C(=O)O)s2)c1 ; species: Hepatitis C virus ; measure: IC50 ; protein: NS3 ATPase ; result: <5 µM
COc1nc(NCCCn2ccnc2)nc(Nc2ccc3cn[nH]c3c2)n1 ; species: Hepatitis B virus ; tested at: 1 µg/mL ; measure: inhibition ; protein: DNA polymerase ; result: 58%
Cc1ccc2nc(-c3ccc4nc(-c5ccc(NC(=O)c6ccccc6)cc5)sc4c3)sc2c1S(=O)(=O)O ; species: Hepatitis C virus ; measure: IC50 ; read by: ATP / substrate cleavage / absorbance ; protein: NS3 helicase ; result: 130 µM
O=C(O)[C@@H](Cc1ccccc1)N(Cc1ccco1)C(=O)c1ccc(Cl)cc1Cl ; species: Hepatitis C virus ; measure: IC50 ; protein: RNA-dependent RNA polymerase ; result: 5–20 µM
O=C(O)c1cc2nc(-c3cccc(Cl)c3)cc(-c3cc(Cl)cc(Cl)c3)n2n1 ; species: Hepatitis C virus ; measure: IC50 ; protein: RNA-dependent RNA polymerase ; result: >10 µM
C[C@H](Cn1cnc2c(N)ncnc21)OCP(=O)(O)O ; strain: HepG 2.2.15 ; species: Hepatitis B virus ; measure: IC50 ; read by: ELISA ; protein: HBeAg ; result: >1740 µM
CC(C)C[C@@]1(C(=O)O)C[C@@H](c2ncno2)[C@H](c2ccccn2)N1C(=O)c1ccc(C(C)(C)C)cc1 ; species: Hepatitis C virus ; measure: IC50 ; protein: RNA-dependent RNA polymerase ; result: <50 µM
O=C(Nc1cc2c(cc1F)COB2O)N[C@H]1CCCCC/C=C\[C@@H]2C[C@@]2(C(=O)NS(=O)(=O)C2CC2)NC(=O)C2C[C@@H](OC(=O)N3Cc4cccc(F)c4C3)CN2C1=O ; species: Hepatitis C virus ; measure: IC50 ; read by: FRET ; protein: HCV NS3/4A 1a ; result: <0.2 nM
COc1nc(Nc2ccc3cn[nH]c3c2)nc(N2CCC(O)CC2)n1 ; species: Hepatitis C virus ; tested at: 1 µg/mL ; measure: inhibition ; protein: Nonstructural protein 5B ; result: 32%
O=C(N[C@H]1CCCCC/C=C\[C@@H]2C[C@@]2(C(=O)NS(=O)(=O)C2CC2)NC(=O)C2C[C@@H](OC(=O)N3Cc4cccc(F)c4C3)CN2C1=O)Oc1ccc2c(c1)B(O)OC2 ; species: Hepatitis C virus ; measure: IC50 ; read by: FRET ; protein: HCV NS3/4A 1a ; result: 4.1 nM
COc1cc(C(=O)N2[C@@H](c3cccs3)[C@H](c3nc(C)no3)C[C@@]2(CC(C)C)C(=O)O)ccc1C(C)(C)C ; species: Hepatitis C virus ; measure: IC50 ; protein: RNA-dependent RNA polymerase ; result: <50 µM
O=C(O)c1sc(-c2ccccc2)cc1N(Cc1ccccc1)C(=O)c1ccc(Cl)cc1Cl ; species: Hepatitis C virus ; measure: IC50 ; protein: NS3 ATPase ; result: <5 µM
O=C(O)C[C@H](Cc1ccccc1)N(Cc1ccc(-c2cccc(C(F)(F)F)c2)o1)C(=O)c1ccc(Cl)cc1Cl ; species: Hepatitis C virus ; measure: IC50 ; protein: RNA-dependent RNA polymerase ; result: <5 µM
Cc1ccc(-c2cc(NS(=O)(=O)c3ccccc3C)c(C(=O)O)s2)nc1 ; species: Hepatitis C virus ; measure: IC50 ; protein: NS3 ATPase ; result: <5 µM
CC(C)=CCN(C(=O)c1ccc(Cl)cc1Cl)[C@@H](Cc1ccccc1)C(=O)O ; species: Hepatitis C virus ; measure: IC50 ; protein: RNA-dependent RNA polymerase ; result: 5–20 µM
CNC(=O)CN1CCN(c2nc(Nc3ccc4[nH]ncc4c3)nc(OC)n2)CC1 ; species: Hepatitis C virus ; tested at: 0.1 µg/mL ; measure: inhibition ; protein: Nonstructural protein 5B ; result: 4%
Cc1noc([C@H]2C[C@@](CC(C)C)(C(=O)O)N(C(=O)c3ccc(C(C)(C)C)cc3)[C@H]2c2nccs2)n1 ; species: Hepatitis C virus ; measure: IC50 ; protein: RNA-dependent RNA polymerase ; result: <50 µM
COc1ccc(-c2ccc(-c3cnc4c(C(=O)O)cnn4c3C3CCCCC3)cc2)cc1F ; species: Hepatitis C virus ; measure: IC50 ; protein: RNA-dependent RNA polymerase ; result: 1–10 µM
Cn1c(Cc2nc3ccc(C(N)=O)cc3[nH]2)nc2ccc(C(=O)Nc3ccc(C(=O)NC(CCC(=O)O)C(=O)O)cc3)cc21 ; species: Hepatitis C virus ; measure: IC50 ; protein: NS3 serine protease ; result: 13 µM
Cc1nc([C@H]2C[C@@](CC(C)C)(C(=O)O)N(C(=O)c3ccc(C(C)(C)C)cc3)[C@H]2c2nccs2)n[nH]1 ; species: Hepatitis C virus ; measure: IC50 ; protein: RNA-dependent RNA polymerase ; result: <50 µM
COc1nc(Nc2ccc3[nH]ncc3c2)nc(N2CCN(CCO)CC2)n1 ; species: Hepatitis C virus ; tested at: 1 µg/mL ; measure: inhibition ; protein: Nonstructural protein 5B ; result: 45%
CCCN(NC(=O)[C@H]1C[C@@H](OCc2ccccc2)CN1C(=O)[C@@H](NC(=O)[C@@H](OC(=O)[C@@H](CC(=O)O)NC(=O)[C@H](CC(=O)O)NC(C)=O)[C@H](C)CC)C(C)C)C(=O)OCc1ccccc1 ; species: Hepatitis C virus ; measure: IC50 ; protein: Serine protease ; result: 0.8 µM
COc1nc(NCCN2CCOCC2)nc(Nc2ccc3cn[nH]c3c2)n1 ; species: Hepatitis B virus ; tested at: 0.01 µg/mL ; measure: inhibition ; protein: DNA polymerase ; result: 49%
O=C(O)c1sc(-c2ccccc2)cc1NC(=O)N1CCN(c2cccc(C(F)(F)F)c2)CC1 ; species: Hepatitis C virus ; measure: IC50 ; protein: NS3 ATPase ; result: 5–20 µM
CNC1N=C(OC)N=C(Nc2ccc3cn[nH]c3c2)N1CN ; species: Hepatitis C virus ; tested at: 1 µg/mL ; measure: inhibition ; protein: Nonstructural protein 5B ; result: 26%
COc1cc(C)c(S(=O)(=O)N(Cc2c(C(=O)c3ccc(Cl)cc3)oc3ccccc23)[C@@H](Cc2ccccc2)C(=O)O)c(C)c1C ; species: Hepatitis C virus ; measure: IC50 ; protein: RNA-dependent RNA polymerase ; result: 5–20 µM
CC(C)C[C@@]1(C(=O)O)C[C@H](c2ncno2)[C@H](c2ccccn2)N1C(=O)c1ccc(C(C)(C)C)cc1 ; species: Hepatitis C virus ; measure: IC50 ; protein: RNA-dependent RNA polymerase ; result: <50 µM
O=C(O)c1sc(-c2ccc([N+](=O)[O-])cc2)cc1NS(=O)(=O)c1ccccn1 ; species: Hepatitis C virus ; measure: IC50 ; protein: NS3 ATPase ; result: 5–20 µM
O=C(O)c1cc2nccc(-c3ccccc3-c3ccc(Cl)cc3)n2n1 ; species: Hepatitis C virus ; measure: IC50 ; protein: RNA-dependent RNA polymerase ; result: 1–10 µM
Cc1ccc(C(=O)N(C)c2cc(-c3ccc(C#N)cc3)sc2C(=O)O)cc1 ; species: Hepatitis C virus ; measure: IC50 ; protein: NS3 ATPase ; result: 5–20 µM
COC(=O)c1ccc(COc2ccc(-c3cnc4c(-c5nn[nH]n5)cnn4c3C3CCCCC3)cc2)cc1 ; species: Hepatitis C virus ; measure: IC50 ; protein: RNA-dependent RNA polymerase ; result: <1 µM
COc1nc(Nc2ccc3cn[nH]c3c2)nc(-n2ccnc2)n1 ; species: Hepatitis B virus ; measure: IC50 ; protein: DNA polymerase ; result: 0.1–1 µg/mL
Cc1noc([C@@H]2C[C@@](CC(C)C)(C(=O)O)N(C(=O)c3ccc(C(C)(C)C)c(C)c3)[C@H]2c2nccs2)n1 ; species: Hepatitis C virus ; measure: IC50 ; protein: RNA-dependent RNA polymerase ; result: <50 µM

The first 3 rows once more:

O=C(O)C(Cc1ccccc1)N(Cc1ccc(-c2ccncc2)o1)C(=O)c1ccc(Cl)cc1Cl ; species: Hepatitis C virus ; measure: IC50 ; protein: RNA-dependent RNA polymerase ; result: <5 µM
O=C(O)c1cnn2c(C3CCCCC3)c(-c3ccccc3)cnc12 ; species: Hepatitis C virus ; measure: IC50 ; protein: RNA-dependent RNA polymerase ; result: 1–10 µM
COCC(C)N(C(=O)C1CCC(C)CC1)c1cc(-c2ccccc2)sc1C(=O)O ; species: Hepatitis C virus ; measure: IC50 ; protein: NS3 ATPase ; result: <5 µM

Two numbers with a dash give a range or band. Percent inhibition refers to the dose given; in toxicity tests it is the harm to the cells. ICn: concentration for n% inhibition.